The values that follow come from patent EP0311108A2, “Anti-HIV active 3'-azido-2,6-diaminopurine-2',3'-dideoxyriboside” (Stichting REGA V.Z.W., priority 1987, dated 1989).

The structures appear in SMILES notation.

Data set [1] concerns Moloney murine sarcoma virus (MSV). Kind of data set: Inhibition of MSV-induced C3H cell transformation. The data set is classed as cell-based. To be noted: ratio of 50% cell toxic dose to 50% antivirally effective dose. As for the experimental part:
For transformation of C3H mouse embryo cells by Moloney murine sarcoma virus (MSV), confluent monolayers of C3H cells in 1 ml wells of Tissue Culture Cluster plates were infected with 150 foci-forming units of MSV during 90 min, whereafter medium was replaced by 1 ml fresh culture medium containing different concentrations of test compound. After 6-7 days incubation at 37°C, transformation of the cell cultures was monitored microscopically.

The next data set deals with HIV (HTLV-IIIB). Kind of data set: Inhibition of HIV-induced cytopathogenicity in MT4 cells (trypan blue exclusion). The format is cell-based. To be noted: ratio of 50% cell toxic dose to 50% antivirally effective dose.

Regarding `Nc1nc(N)c2ncn([C@H]3CC[C@@H](CO)O3)c2n1` [ddDAPR, 2,6-Diamino-9-(2,3-dideoxy-β-D-glycero-pentofuranosyl)purine], the “S.I., MSV-induced C3H cell transformation” value in data set [1] was “≧ 11”. Besides, in the data set with HIV (HTLV-IIIB), the “S.I., HIV-induced cytopathogenicity in MT4 cells” value came to 106.

For `[N-]=[N+]=N[C@H]1C[C@H](n2cnc3c(N)nc(N)nc32)O[C@@H]1CO` [AzddDAPR, 2,6-diamino-9-(3-azido-2,3-dideoxy-β-D-erythro-pentofuranosyl)purine], the “S.I., MSV-induced C3H cell transformation” value in data set [1] is on record as above 200. In the data set on HIV (HTLV-IIIB), the “S.I., HIV-induced cytopathogenicity in MT4 cells” value turned out to be 157.
